The assay concerns the target HLA-DM (DM), soluble, wild type, biotinylated at the BirA tag (human, biotin on the BirA tag). Nature of the assay: SPR. The following applies: both partners purified.

B1:  (peptide-MHC)
chain 1: [about 200 residues left out]
chain 2: DTRPRFLWQLKFECHFFNGTERVRLLERSIYNQEESVRFDSDVGEYRAVTELGRPDAEYWNSQKDLLEQRRAAVDTYCRHNYGVGESFTVQRRVEPKVTVYPSKTQPLQHHNLLVCSVSGFYPGSIEVRWFRNGQEEKAGVVSTGLIQNGDWTFQTLVMLETVPRSGEVYTCQVEHPSVTSPLTVEWRARSE
chain 3: VVKQNCLKLATK
For the molecule B1, the “fold reduction in binding compared to DR1:pHA*^P2-P11” value was 5 fold.
